Data source: PubChem BioAssay AID504761 (Drosophila RNAi Screening Center, 2011)

Purpose: 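Genome-wide fly cell screen for genes dengue virus requires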 (primary screen)
Cells: D.Mel-2 cells from Drosophila
Knock-down reagent: long dsRNA against Drosophila genes
Conditions: infection with dengue virus type 2; dose and infection time not stated
Measured: 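Per well on two replicate plates, imaging gave the percent of cells positive for viral envelope protein, ranked by infection, and a nuclear count of cells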
Scale: infection score: higher = more virus-infected cells; cell count: higher = more cells in the well
Rule for the call: 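Low infection ranks in the two replicates (chance level up to 0.065) followed by a retest with a 1.5-fold or larger significant decrease, p below 0.05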
Calls: active = confirmed: knock-down lowers infection; inactive = not picked or not confirmed
In all, the deposit lists about 22,000 reagents; this is an unselected part of those with a known target gene and a result. Over the whole deposit, 116 (0.52%) got an active call. 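Calls depend on retest data that are not deposited; infection was ranked per plate without normalising between plates; the unit of the infection score is not given.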 Raw values vary from plate to plate and are shown uncorrected. Names joined by + are all predicted targets of the reagent. Not all columns of the deposit are shown. Not stated in the record: the amount of reagent, the time to read-out.

Knock-down of CG14113 [DRSC10116] gave: infection score, replicate 1 = 1.39; cell count, replicate 1 = 6248; inactive.
With knock-down of LManIII [DRSC03221] the results were infection score, replicate 1 = 8.76; cell count, replicate 1 = 6333; inactive.
LManIII [DRSC29001] showed infection score, replicate 1 = 9.33; cell count, replicate 1 = 1286; inactive.
With knock-down of Alh [DRSC12447], the record shows infection score, replicate 1 = 0.96; cell count, replicate 1 = 3525; inactive.
For Alh [DRSC12487], the values are infection score, replicate 1 = 4.1; cell count, replicate 1 = 6665; inactive.
For Alh [DRSC12488], the values are infection score, replicate 1 = 17.6; cell count, replicate 1 = 5015; inactive.
Alh [DRSC28926] showed infection score, replicate 1 = 16.4; cell count, replicate 1 = 5837; inactive.
After knock-down of CG6927 [DRSC18407], the screen gave infection score, replicate 1 = 8.03; cell count, replicate 1 = 5839; inactive.

Records listed so far whose target name starts with L or l:
LManIII [DRSC03221] — infection score, replicate 1: 8.76; cell count, replicate 1: 6333; activity call: inactive
LManIII [DRSC29001] — infection score, replicate 1: 9.33; cell count, replicate 1: 1286; activity call: inactive

The listing continues.
CG13077 [DRSC02181] scored infection score, replicate 1 = 10.7; cell count, replicate 1 = 5506; inactive.
With knock-down of POLDIP2 [DRSC12194], the screen gave infection score, replicate 1 = 4.25; cell count, replicate 1 = 6799; inactive.
Against CG13323 + CG13324 [DRSC29000] the deposit lists infection score, replicate 1 = 15.7; cell count, replicate 1 = 2375; inactive.
For hwt [DRSC19386] the deposit lists infection score, replicate 1 = 6.14; cell count, replicate 1 = 6633; inactive.
Knock-down of hwt [DRSC23728] resulted in: infection score, replicate 1 = 3.94; cell count, replicate 1 = 6138; inactive.
For hwt [DRSC25353], the values are infection score, replicate 1 = 1.73; cell count, replicate 1 = 6082; inactive.
